PubChem BioAssay AID504761, Drosophila RNAi Screening Center – 2011

Aim: 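Insect host genes that dengue virus relies on to spread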 (primary screen)
Cells: D.Mel-2 cells from Drosophila
Reagents: long dsRNA against Drosophila genes
Treatment: infection with dengue virus type 2; dose and infection time not stated
Measured: 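Cells stained for dengue envelope protein and imaged; percent of infected cells per well on duplicate plates, ranked by infection, with stained nuclei counted for cell number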
Scale: infection score: higher = more virus-infected cells; cell count: higher = more cells in the well
Call rule: 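Low infection ranks in the two replicates (chance level up to 0.065) followed by a retest with a 1.5-fold or larger significant decrease, p below 0.05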
Meaning of the calls: active = confirmed: knock-down lowers infection; inactive = not picked or not confirmed
In all, the deposit lists about 22,000 reagents; this is a random part of those that have a named target and a result. Over the whole deposit, 116 (0.52%) are marked active. 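Calls depend on retest data that are not deposited; infection was ranked per plate without normalising between plates; the unit of the infection score is not given.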 Raw values vary from plate to plate and are shown uncorrected. A number with no mark means an inactive call. Names joined by + are all predicted targets of the reagent. No sequences are given here. Not given: the amount of reagent, the time to read-out.

| target gene | dsRNA | infection score, replicate 1 | infection score, replicate 2 | cell count, replicate 1 | cell count, replicate 2 |
| --- | --- | --- | --- | --- | --- |
| wwk (white walker) | DRSC01941 | – | 4.99 | 624 | 6852 |
| yki (yorkie) | DRSC04437 | 31.9 | 25.2 | 6241 | 5746 |
| yki (yorkie) | DRSC28304 | 20.3 | 15.2 | 3692 | 3861 |
| CG8642 | DRSC07228 | 6.38 | 16.4 | 6831 | 6359 |
| mas (masquerade) | DRSC08720 | 16.4 | 14.2 | 6009 | 5137 |
| mas (masquerade) | DRSC28905 | 10.1 | 3.05 | 3282 | 1673 |
| D2hgdh (D-2-hydroxyglutaric acid dehydrogenase) | DRSC18577 | 7.68 | 8.16 | 6305 | 662 |
| D2hgdh (D-2-hydroxyglutaric acid dehydrogenase) | DRSC25824 | 2.4 | 9.79 | 6744 | 4844 |
| CG8372 | DRSC03086 | 2.06 | 9.87 | 5969 | 5592 |
| Eig71Ea (Ecdysone-induced gene 71Ea) | DRSC11148 | 0.47 | 1.83 | 5768 | 5741 |
| CG1075 (retired record) | DRSC12144 | 6.9 | 8.42 | 6417 | 6244 |
| CG42512 + CG32573 | DRSC19532 | 5.61 | 1.74 | 5316 | 6790 |
| CG42512 + CG32573 | DRSC19906 | 7.04 | 21.1 | 6703 | 5250 |
| CG42512 + CG32573 | DRSC22782 | 1.74 | 6.98 | 6206 | 6534 |
| CG14561 | DRSC11722 | 4.08 | 3.04 | 6295 | 6651 |
| Trax (Translin associated factor X) | DRSC15709 | 19.4 | 11.8 | 5847 | 6115 |
| CG10903 | DRSC14281 | 6.5 | 7.52 | 5904 | 5534 |
| GstD4 (Glutathione S transferase D4) | DRSC16685 | 11.4 | 11.9 | 6590 | 6460 |
| GstD4 (Glutathione S transferase D4) | DRSC27765 | 4.65 | 13.8 | 6259 | 5409 |
| HLH4C (Helix loop helix protein 4C) | DRSC18670 | 0.93 | 5.04 | 6128 | 7181 |
| HLH4C (Helix loop helix protein 4C) | DRSC21322 | 0.78 | 2.02 | 6179 | 6724 |
| HLH4C (Helix loop helix protein 4C) | DRSC25228 | 11.1 | 0.77 | 6192 | 5723 |
| CG14205 | DRSC19560 | 5.31 | 2.12 | 6192 | 6284 |
| CG14205 | DRSC28253 | 15.5 | 8.7 | 5816 | 4710 |
